Measured values reported in US11390664B2, “Antibodies that potently neutralize hepatitis B virus and uses thereof” (priority 2015, dated 2022).

System: HBV (genotype D)
Assay: HBV spreading in humanized uPA/SCID mice, treatment from 3 weeks post-infection
Format: in vivo, uPA/SCID mice repopulated with primary human hepatocytes
Conditions: spreading phase, weeks 3 to 6 p.i.; HBC34 1 mg/kg i.p. twice per week; entecavir orally 1 μg/ml in water

| Compound | HBV viremia (HBV titers) |
| --- | --- |
| HBC34: IgG1-type fully human monoclonal antibody against HBsAg antigenic loop; VH SEQ ID NO: 41, VL SEQ ID NO: 42 | decreased |
| C=C1[C@H](CO)[C@@H](O)C[C@@H]1n1cnc2c(=O)[nH]c(N)nc21 [entecavir, reference compound] | decreased |
